Biological target: human IRAK1 fused to the N-terminal Nanoluc fragment N67 (human) (UniProt P51617)
Assay: split reporter (BiFC, NanoBiT)

“EEEV capsid protein fused to the C-terminal Nanoluc fragment C67 (natural protein)” showed a fold Nanoluc activity over control reactions of 20 fold.

Source: paper PMC7997285, “The Alphaviral Capsid Protein Inhibits IRAK1-Dependent TLR Signaling” (2021)
